Compound potency records, mixed from different reports. Data source: NIAID ChemDB in PubChem.

Common to all: whole-cell or culture tests; organism: HIV-1; read-out: fold resistance

Fold resistance has wild type as its base. Blank or dashed fields: not listed here. Rows are shuffled and stem from different studies.

{"compound": "CCC(=O)c1ccc(F)c([C@@H]2C[C@@H]2NC(=O)Nc2ccc(C#N)cn2)c1O", "cells": "TZM-bl", "strain": "LAI", "mutations": "NNRTI-resistant (RT G190A)", "method": "β-galactosidase / luminescence", "value": "0.6"}
{"compound": "CC(C)OC(=O)c1cc(NC(=S)c2ccccc2N)ccc1Cl", "cells": "CEM", "mutations": "RT-L100I", "method": "syncytia", "value": "86.7"}
{"compound": "COc1ccnc2[nH]cc(C(=O)C(=O)N3CCN(C(=O)c4ccccc4)C[C@H]3C)c12", "cells": "MT-2", "strain": "LAI(GP120-V68A M434I) Recombinant", "mutations": "GP120-V68A M434I", "method": "RT activity", "value": "77.25"}
{"compound": "C/C=C/COc1cc(NC(=S)c2ccoc2C)ccc1Cl", "cells": "CEM", "mutations": "RT-Y181C", "method": "syncytia", "value": "29"}
{"compound": "CC(C)(C)C1=NC(c2ccccc2)(C(F)(F)F)NC(=O)N1", "cells": "TZM-bl", "strain": "NL4-3", "mutations": "L100I", "method": "luciferase", "value": "41"}
{"compound": "CCc1c(C(=O)c2cc(C)cc(C)c2)n(CC2CC=CC2)c(=O)[nH]c1=O", "strain": "IIIB-SJ-3366 P21 (RT-E6E/K V106I Y181C F227L)", "mutations": "RT-E6E/K V106I Y181C F227L", "value": ">33000"}
{"compound": "CC(C)CN(C[C@@H](O)[C@H](Cc1ccccc1)NC(=O)O[C@H]1CO[C@H]2OCC[C@H]21)S(=O)(=O)c1ccc2c(c1)/C(=C/c1ccc(N(C)C)cc1)C(=O)N2", "cells": "MT-4", "strain": "F", "mutations": "PR-L10F M46I M71V I84V", "method": "cytopathic effect / MTT", "value": "3.5"}
{"compound": "Cn1cccc1C(=S)Nc1ccc(Cl)c(/C=N/OC(C)(C)C)c1", "cells": "CEM", "mutations": "RT-K103N", "method": "syncytia", "value": "5.9"}
{"compound": "Nc1nc2c(ncn2[C@H]2CO[C@@H](CO)O2)c(=O)[nH]1", "cells": "MT-2", "mutations": "RT-K65R", "method": "cytopathic effect / XTT", "value": "~1.67"}
{"compound": "C=CCOc1cc(NC(=S)c2sccc2C)ccc1OC", "cells": "CEM", "mutations": "RT-L100I", "method": "syncytia", "value": "108"}
{"compound": "Cc1cc(C#N)cc(C(=O)c2cc(Cl)ccc2OCC(=O)Nc2cnc(S(N)(=O)=O)cc2C)c1", "cells": "HeLa + HELA CD4+", "strain": "HXB2 (RT-K103N Y181C) Recombinant", "mutations": "RT-K103N Y181C", "method": "β-galactosidase", "value": "~1"}
{"compound": "CC(C)OC(=O)c1cc(NC(=S)c2ccco2)ccc1Cl", "cells": "CEM", "mutations": "RT-V106A", "method": "syncytia", "value": "15"}
{"compound": "Cc1occc1C(=S)Nc1ccc(Cl)c(/C=N/OC(C)(C)C)c1", "cells": "CEM", "strain": "IIIB", "mutations": "RT-L100I", "method": "syncytia", "value": "2"}
{"compound": "N#Cc1ccc(Nc2nc(N)nc(Oc3c(Cl)cc(Cl)cc3Cl)n2)cc1", "cells": "MT-4", "mutations": "RT-Y188L", "method": "cytopathic effect / MTT", "value": "0.4962"}
{"compound": "Cc1occc1C(=S)Nc1ccc(Cl)c(C(=O)OC(C)C)c1", "cells": "CEM", "mutations": "RT-E138K", "method": "syncytia", "value": "85"}
{"compound": "O=C(NCCO)c1[nH]c2ccc(Cl)cc2c1S(=O)(=O)c1ccccc1", "cells": "MT-4", "mutations": "RT-Y181C", "method": "cytopathic effect / MTT", "value": "70"}
{"compound": "C#CCOc1cc(NC(=S)c2ccoc2C)ccc1Cl", "cells": "CEM", "mutations": "RT-Y181C", "method": "syncytia", "value": "6.63"}
{"compound": "Cc1cccc(S(=O)(=O)c2c(C(=O)NCCO)[nH]c3ccc(Cl)cc23)c1", "cells": "MT-4", "mutations": "RT-Y181C", "method": "cytopathic effect / MTT", "value": "26"}
{"compound": "Cc1occc1C(=O)Nc1ccc(Cl)c(C(=O)OC(C)C2CC2)c1", "cells": "CEM", "mutations": "RT-L100I", "method": "syncytia", "value": "17.1"}
{"compound": "NC(=O)c1[nH]c2ccc(Cl)cc2c1S(=O)(=O)c1ccccc1", "cells": "MT-4", "mutations": "RT-K103N Y181C", "method": "cytopathic effect / MTT", "value": "5000"}
{"compound": "Cc1sccc1C(=S)Nc1ccc(Cl)c(OCC=C(Cl)Cl)c1", "cells": "CEM", "strain": "Pyridone-resistant (RT Y181C)", "mutations": "RT-Y181C", "method": "syncytia", "value": "32.9"}
{"compound": "CC(C)OC(=O)c1cc(NC(=S)OC(C)C)ccc1Cl", "cells": "CEM", "strain": "IIIB", "mutations": "RT-Y188H", "method": "syncytia", "value": "72"}
{"compound": "Cc1cc(S(N)(=O)=O)ccc1NC(=O)COc1ccc(Cl)cc1C(=O)c1cccc(C#N)n1", "cells": "HeLa + HELA CD4+", "strain": "HXB2", "mutations": "RT-V106I Y181C", "method": "β-galactosidase", "value": "~1"}
{"compound": "Cc1occc1C(=S)Nc1ccc(Cl)c(/C=N/OCc2ccccc2)c1", "cells": "CEM", "mutations": "RT-V106A", "method": "syncytia", "value": "2.05"}
{"compound": "CCCN(C(=O)C(=O)N(C)C)C12CCC(Cn3c1nc(C(=O)NCc1ccc(F)cc1)c(O)c3=O)OC2", "cells": "HeLa", "mutations": "G140S/Q148H", "method": "single cycle", "value": ">209"}
{"compound": "Cc1ccc(S(=O)(=O)c2c(C(=O)NNCCO)[nH]c3ccc(Cl)cc23)cc1", "cells": "MT-4", "mutations": "RT-K103N Y181C", "method": "cytopathic effect / MTT", "value": "500"}
{"compound": "Cc1occc1C(=S)Nc1ccc(Cl)c(OCC(C)(C)C)c1", "cells": "CEM", "mutations": "RT-V106A", "method": "syncytia", "value": "13.3"}
{"compound": "Cc1cc(S(N)(=O)=O)ccc1NC(=O)COc1ccc(Cl)cc1C(=O)c1cc(F)cc(C(F)(F)F)c1", "cells": "HeLa + HELA CD4+", "strain": "HXB2", "mutations": "RT-Y188C", "method": "β-galactosidase", "value": "~1"}
{"compound": "Cc1cc(C)cc(S(=O)(=O)c2c(C(=O)NCCO)[nH]c3ccc(Cl)cc23)c1", "cells": "MT-4", "mutations": "RT-Y181C", "method": "cytopathic effect / MTT", "value": "11"}
{"compound": "CC1(C)Oc2ccc3ccc(=O)oc3c2[C@@H](OC(=O)C23CCC(C)(C(=O)O2)C3(C)C)[C@H]1OC(=O)C12CCC(C)(C(=O)O1)C2(C)C", "cells": "MT-4", "strain": "PRMDR", "mutations": "PR-M46I L63P V82T I84V", "method": "p24", "value": "1"}
{"compound": "C=C(C)COCn1c(CC2CCCc3ccccc32)c(CC)c(=O)[nH]c1=O", "cells": "MT-4", "strain": "N119 RT-Y181C NNRTI-resistant", "mutations": "RT-Y181C", "method": "cytopathic effect / MTT", "value": ">33.3"}
{"compound": "Cc1ccsc1C(=O)Nc1ccc(Cl)c(C(=O)OC2CCCCC2)c1", "cells": "CEM", "mutations": "RT-Y181C", "method": "syncytia", "value": "26.3"}
{"compound": "Cc1cc(C)cc(C(=O)c2c(C(C)C)c(=O)[nH]c(=O)n2CC2=CCCC2)c1", "cells": "CEM + CEM-SS", "mutations": "RT-K103N", "method": "cytopathic effect / XTT", "value": "80"}
{"compound": "CC(C)OC(=O)c1cc(NC(=S)c2cccs2)ccc1Cl", "cells": "CEM", "mutations": "RT-E138K", "method": "syncytia", "value": "30"}
{"compound": "Cc1cc2cn[nH]c2cc1NC(=O)COc1ccc(Cl)cc1C(=O)c1cccc(C#N)c1", "cells": "HeLa + HELA CD4+", "strain": "HXB2", "mutations": "RT-G190A", "method": "β-galactosidase", "value": "~1"}
{"compound": "Cc1ccccc1S(=O)(=O)c1c(C(=O)NCCO)[nH]c2ccc(Cl)cc12", "cells": "MT-4", "mutations": "RT-K103N Y181C", "method": "cytopathic effect / MTT", "value": "387"}

Repeating the first 3 entries:

compound | cells | strain | mutations | method | value
CCC(=O)c1ccc(F)c([C@@H]2C[C@@H]2NC(=O)Nc2ccc(C#N)cn2)c1O | TZM-bl | LAI | NNRTI-resistant (RT G190A) | β-galactosidase / luminescence | 0.6
CC(C)OC(=O)c1cc(NC(=S)c2ccccc2N)ccc1Cl | CEM |  | RT-L100I | syncytia | 86.7
COc1ccnc2[nH]cc(C(=O)C(=O)N3CCN(C(=O)c4ccccc4)C[C@H]3C)c12 | MT-2 | LAI(GP120-V68A M434I) Recombinant | GP120-V68A M434I | RT activity | 77.25